A mixed list of measured activities; the numbers were collected in NIAID ChemDB.

Common to all: growth or infection tests; species: HIV-1; measure: EC50

a–b is a range or a potency band.

compound | changes | conditions | strain | cells | result
Nc1nc2c(ncn2[C@H]2C[C@]23C[C@@H]3CO)c(=O)[nH]1 | - | - | - | CEM + CEM-SS | >100 µM
N=c1ncn([C@H]2CC[C@@H](CO)O2)c2nc[nH]c12 | - | - | - | MT-4 | 264 µM
Cc1ccnc2c1NC(=O)c1cccnc1N2C1CC1 | RT-L74V L100I | - | - | MT-4 | <0.8 µM
Cc1c(Sc2ccccc2)n(COC(CN=[N+]=[N-])COCc2ccccc2)c(=O)[nH]c1=O | - | - | - | CEM | 0.05–100 µM
S=C(NCCc1ccc(Br)s1)Nc1ccc(Br)cn1 | - | - | IIIB | PBMC | 0.05 µM
Cc1ccc2c(c1)COP(=O)(OC[C@H]1O[C@@H](n3cc(C)c(=O)[nH]c3=O)C[C@@H]1N=[N+]=[N-])O2 | - | - | - | CEM + CEM/O | 0.005 µM
Nc1ncnc2c1ncn2CCOCP(=O)(O)O | - | - | LAI | - | 3.8 µM
CCOP(=O)(N[C@H]1C[C@H](n2cc(C)c(=O)[nH]c2=O)O[C@@H]1CO)OCC | - | - | LAV | PBMC | >100 µM
Nc1nc(N)c2ncn([C@H]3CC[C@@H](CO)O3)c2n1 | - | - | - | - | 2.1 µM
CC(C)=CCN1Cc2cccc3[nH]c(=S)n(c23)C[C@@H]1C | - | - | - | CEM | 0.0204 µM
[B-][P@](=O)(OC[C@H]1O[C@@H](n2cc(C)c(=O)[nH]c2=O)C[C@@H]1N=[N+]=[N-])OP(=O)(O)C(F)(F)P(=O)(O)O | - | - | - | CEM | 1.2 µM
Nc1nc2c(ncn2[C@H]2C[C@@]23C[C@@H]3CO)c(=O)[nH]1 | - | - | - | CEM + CEM-SS | >100 µM
CC(C)(C)NC(=O)[C@@H]1C[C@@H]2CCCC[C@@H]2CN1C[C@@H](O)[C@H](Cc1ccccc1)NC(=O)[C@H](CC(N)=O)NC(=O)c1ccc2ccccc2n1 | - | - | IIIB(Ro3G) | C8166 | 0.0218 µM
CC(C)Nc1cccnc1N1CCN(C(=O)c2cc3cc(NS(C)(=O)=O)ccc3[nH]2)CC1 | - | - | IIIB | PBMC | 0.01 µM
O=C1O[C@H]2[C@@H]3OC(=O)c4cc(O)c(O)c(O)c4-c4c(cc(O)c(O)c4O)C(=O)OC[C@H]2O[C@@H](OC(=O)c2cc(O)c(O)c(O)c2)[C@@H]3OC(=O)c2cc(O)c(O)c3c2[C@@H]2C1=CC(=O)[C@](O)(O3)C2(O)O | RT-D67N K70R T215F K219Q | - | NRTI resistant (RT D67N K70R T215F K219Q) ARP141 | MAGI | 0.83 µg/mL
O=c1[nH]cnc2c1ncn2[C@H]1CC[C@@H](CO)O1 | - | - | IIIB | MT-4 | 4.95 µg/mL
O=C(Nc1cc(S(=O)(=O)O)cc2cc(S(=O)(=O)O)c(N=Nc3ccc(N=Nc4c(S(=O)(=O)O)cc5cc(S(=O)(=O)O)cc(NC(=O)c6cccc(Cl)c6Cl)c5c4O)cc3)c(O)c12)c1ccc(Cl)cc1Cl | - | - | IIIB/V3-RF | SupT1 + Sup-T1 | 0.7 µg/mL
Cc1ccc2c(C)ccc(-n3c(C)nnc3SCC(=O)Nc3ccccc3Br)c2c1 | Y188L | - | - | HeLa | 0.012 µM
Cc1cn([C@H]2C[C@H](N=[N+]=[N-])[C@@H](COP3(=O)OCc4ccccc4O3)O2)c(=O)[nH]c1=O | - | - | - | CEM + CEM/O | 0.004 µM
CC1=C[C@H]2[C@@]3(O)[C@H](C)[C@@H](O)[C@]4(O)[C@H]([C@@H]3C=C(CO)C[C@]2(O)C1=O)C4(C)C | - | - | IIIB | MT-4 | >10 µg/mL
Nc1nc2c(ncn2[C@H]2C[C@@]23C[C@H]3CO)c(=O)[nH]1 | - | - | RF | CEM + CEM-SS | >100 µM
Cc1cc(C)c2c(c1)COP(=O)(OC[C@H]1O[C@@H](n3cc(C)c(=O)[nH]c3=O)C[C@@H]1N=[N+]=[N-])O2 | - | - | - | CEM + CEM/O | 0.007 µM
C1CNCCNCCCN(CCCN2CCCNCCNCCCNCC2)CCNC1 | - | pseudotyped | Pseudotype (cocal virus genome) | HELA/CD4 + HELA CD4+ | 2 µg/mL
Cc1cn([C@@H]2O[C@H](CO[Si](C)(C)C(C)(C)C)[C@]3(C=CS(=O)(=O)O3)[C@H]2O[Si](C)(C)C(C)(C)C)c(=O)n(C)c1=O | - | - | - | CEM | 0.15 µM
COc1cccc2c1OP(=O)(OC[C@H]1O[C@@H](n3cc(C)c(=O)[nH]c3=O)C[C@@H]1N=[N+]=[N-])OC2 | - | - | - | CEM + CEM/O | 0.009 µM
CC=CCOc1cc(NC(=S)c2ccoc2C)ccc1OC | - | - | - | - | 0.6 µM
CC(C)OC(=O)[C@H](C)N[P@](=O)(CO[C@H](C)Cn1cnc2c(N)ncnc21)Oc1ccccc1 | - | - | - | - | 0.005 µM
COc1ccc(COCC(COCc2ccccc2)OCSc2ccccc2)cc1 | - | - | - | CEM | 0.05–100 µM
Nc1ccn([C@@H]2CC[C@H](CO)O2)c(=O)n1 | - | - | IIIB | MT-4 | 14.5 µM
Cc1cccc(NC(=S)NCCc2ccc(Br)s2)n1 | - | - | IIIB | PBMC | 0.24 µM
O=C1Nc2ccc(Cl)cc2[C@@](C#CC2CC2)(C(F)(F)F)O1 | - | pseudotyped | LAI | - | 0.00038 µM
Cc1ccc2ccc(C)c(-n3c(SCC(=O)Nc4ccc(S(N)(=O)=O)cc4Cl)nnc3C(F)(F)F)c2c1 | Y188L | - | - | HeLa | 0.026 µM
c1ccc(CNCc2ccc(CN3CCCNCCNCCCNCC3)cc2)nc1 | - | - | RF | - | 0.006 µg/mL
Nc1ncnc2c([C@H]3CC[C@](CO)(C(F)(F)F)C3)c[nH]c12 | - | - | LAI | PBMC | 52.5 µM
FCC1CO1 | - | - | - | CEM | 0.05–100 µM
CC(C)(C)C(=O)SCCOP(=O)(OCCSC(=O)C(C)(C)C)OC[C@H]1CC[C@@H](n2cnc3c(N)ncnc32)O1 | - | - | - | PBMC | 0.002 µM
CSC(=S)O[C@H]1C[C@H](n2cc(C)c(=O)[nH]c2=O)O[C@@H]1CO | - | - | LAV | PBMC | >100 µM
Cc1cn([C@H]2C[C@H](N=[N+]=[N-])[C@@H](CO)O2)c(=O)[nH]c1=O | - | - | - | CEM + CEM-SS | 0.5 µM
Cc1ccc2c(C)cccc2c1-n1c(C)nnc1SCC(=O)Nc1ccccc1Br | Y188L | - | - | HeLa | 0.331 µM
O=C(OC1OC2COC(=O)c3cc(Oc4c(C(=O)OC5C(O)OC6COC(=O)c7cc(O)c(O)c(O)c7-c7c(cc(O)c(O)c7O)C(=O)OC6C5OC(=O)c5cc(O)c(O)c(O)c5)cc(O)c(O)c4O)c(O)c(O)c3-c3c(cc(O)c(O)c3O)C(=O)OC2C(OC(=O)c2cc(O)c(O)c(O)c2)C1O)c1cc(O)c(O)c(O)c1 | - | - | - | - | 1–10 µg/mL
CC(C)=CCOc1cc(NC(=S)c2ccoc2C)ccc1Cl | - | - | BaL | MAC | 0.03 µM
O=[P@]12O[C@@H]([C@@H](O)[C@@H](Cc3ccccc3)N1CC1CC1)[C@@H](Cc1ccccc1)N2CC1CC1 | - | - | RF | MT-2 | <110.5 µM
CCCc1cc(=O)oc2c3c(c4c(c12)OC(C)(C)C=C4)O[C@@H](C)[C@H](C)[C@@H]3O | - | - | - | - | 0.5 µM
COc1ccc2c(c1)N(C(=O)OC(C)C)[C@@H](CSC)C(=S)N2 | - | - | - | Primary monocytes/macrophages + Monocyte | 0.001 µM
CC1(Cn2cnc3c(N)ncnc32)CC1CO | - | - | - | - | 42.8 µg/mL

5 of the rows above, restated:

compound,changes,conditions,strain,cells,result
O=c1[nH]cnc2c1ncn2[C@H]1CC[C@@H](CO)O1,-,-,IIIB,MT-4,4.95 µg/mL
CC(C)=CCOc1cc(NC(=S)c2ccoc2C)ccc1Cl,-,-,BaL,MAC,0.03 µM
C1CNCCNCCCN(CCCN2CCCNCCNCCCNCC2)CCNC1,-,pseudotyped,Pseudotype (cocal virus genome),HELA/CD4 + HELA CD4+,2 µg/mL
Cc1ccc2c(c1)COP(=O)(OC[C@H]1O[C@@H](n3cc(C)c(=O)[nH]c3=O)C[C@@H]1N=[N+]=[N-])O2,-,-,-,CEM + CEM/O,0.005 µM
CC(C)(C)NC(=O)[C@@H]1C[C@@H]2CCCC[C@@H]2CN1C[C@@H](O)[C@H](Cc1ccccc1)NC(=O)[C@H](CC(N)=O)NC(=O)c1ccc2ccccc2n1,-,-,IIIB(Ro3G),C8166,0.0218 µM

ECn: concentration that inhibits the pathogen or its effect by n%. Blank or dashed fields: not listed here. Neighbouring rows are from separate reports.